## Sequence variants of PSTVd stem 26 after infection

Reference: Wu et al. 2024, doi:10.1371/journal.ppat.1012142.

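A pool of all variants was put on leaves of three Nicotiana benthamiana plants. Progeny were sequenced from the inoculated region (day 5), the margin of the inoculated leaf (day 10) and systemic leaves (day 12).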

The pool varies stem 26 of the PSTVd intermediate strain in the pattern AGGGUNNCNN; wild type is AGGGUACCCU (upper and lower strand joined, each 5' to 3', the first 5 letters being the upper strand).

Numbers give reads per thousand; 0 = not seen among the reads, higher = more abundant. Each value is the mean of three plants. "Pool" is the share in the plasmid pool used as inoculum, on the same scale. The inoculated region was read from the minus strand, the other sites from the plus strand.

* AGGGUCACUA (pool 2.94) = inoculated region 1.08; leaf margin 0; systemic leaves 0.00475
* AGGGUUACUC (pool 3.85) = inoculated region 2.92; leaf margin 0.740; systemic leaves 0.320
* AGGGUCUCCA (pool 5.44) = inoculated region 2.30; leaf margin 0.00871; systemic leaves 0.570
* AGGUUUGCAG (pool 0.0329) = inoculated region 0; leaf margin 0; systemic leaves 0
* AGGGUGUCCA (pool 3.14) = inoculated region 2.57; leaf margin 0.666; systemic leaves 0.287
* AGGGUCAUCA (pool 0.0493) = inoculated region 0.00788; leaf margin 0; systemic leaves 0
* AGGGUCCCGC (pool 6.56) = inoculated region 4.38; leaf margin 0.297; systemic leaves 0.00623
* AGGGUUACCU (pool 3.47) = inoculated region 1.37; leaf margin 0.00742; systemic leaves 0.0103
* AGGGUCACUU (pool 2.99) = inoculated region 0.961; leaf margin 0.0347; systemic leaves 0
* AGGGUUCCUU (pool 3.62) = inoculated region 1.67; leaf margin 0.00992; systemic leaves 0.00475
* AGGGUUCCGA (pool 2.89) = inoculated region 0.918; leaf margin 0.00742; systemic leaves 0
* AGGGUACACU (pool 1.25) = inoculated region 2.19; leaf margin 3.34; systemic leaves 0.847
* AGGGUACUCU (pool 0.0658) = inoculated region 0.0555; leaf margin 0.131; systemic leaves 0.155
* AGGUUCGCCC (pool 1.66) = inoculated region 0.786; leaf margin 0.00992; systemic leaves 0.00551
* AGGGUGGCAC (pool 4.08) = inoculated region 2.95; leaf margin 0.695; systemic leaves 0.719
* AGGGUGGGCG (pool 0.0329) = inoculated region 0.00788; leaf margin 0.00992; systemic leaves 0
* AGGGUUUCCC (pool 4.21) = inoculated region 3.21; leaf margin 0.711; systemic leaves 0.329
* AGGGUCCCGU (pool 2.71) = inoculated region 0.793; leaf margin 0; systemic leaves 0
* AGGGUCAGCC (pool 1.32) = inoculated region 1.09; leaf margin 0.00992; systemic leaves 0.00551
* AGGGUUUCGU (pool 4.95) = inoculated region 2.45; leaf margin 0.00992; systemic leaves 0
* AGGGUGAACG (pool 0.0329) = inoculated region 0.0143; leaf margin 0; systemic leaves 0
* AGGGUGUCAG (pool 6.27) = inoculated region 4.42; leaf margin 0.651; systemic leaves 0.00551
* AGGGUGCCAU (pool 2.78) = inoculated region 0.783; leaf margin 0.0260; systemic leaves 0
* AGGGUAUCGU (pool 3.29) = inoculated region 1.27; leaf margin 0.0198; systemic leaves 0.00623
* AGGGUGACGU (pool 2.88) = inoculated region 0.954; leaf margin 0.00992; systemic leaves 0
* AGGGUUCCUA (pool 2.98) = inoculated region 0.964; leaf margin 0; systemic leaves 0
* AGGGUUCCGU (pool 3.55) = inoculated region 1.10; leaf margin 0.00992; systemic leaves 0
* AGGGUACACG (pool 0.0329) = inoculated region 0.0263; leaf margin 0.00992; systemic leaves 0
* AGGGUCGCAC (pool 2.70) = inoculated region 0.722; leaf margin 0; systemic leaves 0
* AGGGUGGUCC (pool 0.0493) = inoculated region 1.50; leaf margin 1.38; systemic leaves 0.711
* AGGGUGUCAA (pool 2.57) = inoculated region 2.37; leaf margin 0.738; systemic leaves 0.00623
* AGGGUCGCGC (pool 2.62) = inoculated region 0.805; leaf margin 0.00992; systemic leaves 0
* AGGGUGUACG (pool 0.0493) = inoculated region 1.17; leaf margin 0.767; systemic leaves 0
* AGGGUAGCAG (pool 4.00) = inoculated region 1.93; leaf margin 0.0285; systemic leaves 0.0110
* AGGUUUUCCA (pool 0.0329) = inoculated region 0; leaf margin 0; systemic leaves 0
* AGGGUCCCAC (pool 2.93) = inoculated region 0.735; leaf margin 0; systemic leaves 0
* AGGGUUCCAA (pool 3.60) = inoculated region 1.52; leaf margin 0.0248; systemic leaves 0.0275
* AGGGUGCCAC (pool 2.88) = inoculated region 2.06; leaf margin 0.552; systemic leaves 0
* AGGGUCACAG (pool 3.32) = inoculated region 0.837; leaf margin 0; systemic leaves 0

Extract of 5 entries:

sequence,pool,inoculated region,leaf margin,systemic leaves
AGGGUGUCAA,2.57,2.37,0.738,0.00623
AGGGUGAACG,0.0329,0.0143,0,0
AGGGUAGCAG,4.00,1.93,0.0285,0.0110
AGGGUACACG,0.0329,0.0263,0.00992,0
AGGGUCACAG,3.32,0.837,0,0

With 23,251-70,159 reads a sample, very low values are single reads. For reference, wild type rose from 44.9 per thousand in the pool to 297, 323, 447 (inoculated region), 793, 829, 846 (leaf margin) and 974, 853, 877 (systemic leaves). The authors trace changes outside the varied positions to PCR and sequencing errors or to mutation in the plant; presence does not show that a variant is infectious alone.